Measured values reported in US20050227956A1, “Control of mold growth on wood” (priority 2004, published 2005).

Tests used:
Experiment in all cases: Six-well plate screening test
Format in all cases: cell-based
Conditions in all cases: 10 days of incubation at room temperature
[1] = test system: Cladosporium cladosporioides
Aspergillus niger = test system: Aspergillus niger
Alternaria alternata = test system: Alternaria alternata
Penicillium funiculosum = test system: Penicillium funiculosum
Aureobasidium pullulans = test system: Aureobasidium pullulans
Stachybotrus charatrum = test system: Stachybotrus charatrum

## O=C1C2CC=CCC2C(=O)N1SC(Cl)(Cl)C(Cl)Cl (stereo not drawn)
[1]
  Minimum Inhibitory Concentrations (MIC): >100 mg/kg
Aspergillus niger
  Minimum Inhibitory Concentrations (MIC): 10 mg/kg
Alternaria alternata
  Minimum Inhibitory Concentrations (MIC): >100 mg/kg
Penicillium funiculosum
  Minimum Inhibitory Concentrations (MIC): >100 mg/kg
Aureobasidium pullulans
  Minimum Inhibitory Concentrations (MIC): >100 mg/kg
Stachybotrus charatrum
  Minimum Inhibitory Concentrations (MIC): 25 mg/kg
